Experimental data: patent publication US20260384417A1, “STERYLGLUCOSIDASE INHIBITING COMPOSITIONS AND METHOD OF USING” (published 2026)
Entries after “also recorded” stand apart in the source; their conditions may differ. The source holds more than one record for some entries. The other results are left out here. There may be further records. Results that share an entry differ, and nothing given here explains why; some may be repeats, others may stem from another dose, organism or construct than stated.

System: C. neoformans H99
Test: Sterylglucoside (ergosterol 3β-D-glucoside) accumulation in C. neoformans cells
Conditions: compared with other hits
Procedure: C. neoformans H99 was cultivated in yeast nitrogen base (YNB) broth for 24 h at 37 °C with shaking. A pellet with 5×10^8 cells was treated during 24 h with all the hits selected, according to the toxicity criteria, in various concentrations. […] After that, the resultant pellets were re-counted and used for lipid extraction. Thenceforth the total lipid was extracted and dried samples were resuspended in chloroform/methanol 2:1 ratio for LC-MS analysis. A standard erg-glc from Avanti Polar Lipids was used as a control for the calibration curve. Data were normalized to the total inorganic phosphate content in the sample.

CN1C[C@H](NC(=O)Cc2ccc3c(c2)NC(=O)CO3)C[C@H]1CO
SG accumulation in Cn WT cells: accumulate more SGs than those treated with Hit 1 or Hit 15; also recorded: higher accumulation of SGs in Cn cells compared to Hit 1 or Hit 15
